The values that follow come from patent US20080145339.

For at least one entry, the source does not settle the construct or the ends of the probe.

The target of this data set is AAV Rep78 wild-type (adeno-associated virus 2) (UniProt Q89268). Briefly: EMSA. The following applies: purified recombinant protein, protein details: MBP fusion (pMALc2, amylose purified), label: 32P.

In the case of “ATGTATAAAACTAAGGGCGTAACCGAAATCGGTTGAACCGAAA (double strand) [HPV-16 p97 nt 14-56]”, where the note is “strong target, variant of HPV-16 p97 nt 14-106, only the site is given”, the binding result is listed as “binds”.

On to “ATGTATAAAACTAAGGGCGTAACCGAAATCGGTTGAACCGAAACCGGTTAGTATAAAAGCAGACATTTTATGCACCAAAAGAGAACTGCAATG (double strand) [HPV-16 p97 nt 14-106]”, for which, for the setting “10 mM MgCl2, poly(dI-dC), weaker than TR in competition (FIG. 8)”, the binding result is given as “binds”.
